The source of these data is publication PMC7414181.

Experiment [1] addresses YU2G458D gp120 (HIV-1 strain YU2).
For experiment [2], the target named is YU2E466K gp120 (HIV-1 strain YU2).
Experiment [3] addresses YU2G471R gp120 (HIV-1 strain YU2).

On to “CD4-Ig (from UniProt P01730) (Fc fusion)”, for which the Table S5: IC50 of CD4-Ig in the in vitro neutralisation of YU2G458D pseudovirus on TZM-bl cells (blocks Env from CD4 on target cells) in experiment [1] was 40 µg/mL. This substance also displayed a Table S5: IC50 of CD4-Ig in the in vitro neutralisation of YU2E466K pseudovirus on TZM-bl cells (blocks Env from CD4 on target cells) in experiment [2] of 32.2 µg/mL. For the same substance, in experiment [3], the Table S5: IC50 of CD4-Ig in the in vitro neutralisation of YU2G471R pseudovirus on TZM-bl cells (blocks Env from CD4 on target cells) came to 34.2 µg/mL.
